Data taken from patent publication US20200200749A1 (VANDERBILT UNIVERSITY, published 2020).

B1: EBOV49 (antibody, V domains shown)
VH: EVQLVESGGGLVQPGGSLRLSCAASGFTFSSYEINWVRQAPGRGLEWVSYISSSGRTIYYADSVKGRFTISRDNAKNSLYLQMNSLRAEDTAVYYCAREPYVDGILYGAGDSYFDYWGQGTLVTVSS
VL: DIQMTQSPSSLSASVGDRVTITCRASQSISNYLNWYQQKPGKAPKVLIYAASSLQSGVSSRFSGSGSGTDFTLTISSLQPEDFATYFCQQSYNTPPVTFGQGTRLEIK
B2: EBOV157 (antibody, V domains shown)
VH: QVQLVQSGGGLVQPGGSLRLSCAASGFTVSNNYMSWVRQAPGKGLEWVSIFYSDGTTYNADSVKGRFTISRDNSKNTLYLQMNSLRAEDTAVYYCARQASGYDAYYMDVWGQGTLVTVSS
VL: DIVMTQSPSTLSASVGDRVTITCRASQSINSWLAWYQQKPGKAPKLLIYQASTLERGVPSRFSGSGAGTEFTLTISSLQPDDFATYYCQQYSSFPLTFGGGTKVELK
B3: EBOV52 (antibody, V domains shown)
VH: QVQLQESGPGLVKPSETLSLNCTVSGGSISSYYWSWIRQPPGKGLEWIGYIYDSGRTKYNPSLKSRVTISLDTSKNQFSLKLSSVTAADTAVYYCASLGPFDKLWFGELLPGWFDPWGQGTLVTVSS
VL: EIVLTQSPATLSLSPGGRATLSCRASQSVHNYLAWYQQKSGQAPRLLIYDASNRATGIPARFSGSGSGTDFTLTISSLEPDDFAVYYCQHRSNWLTFGGGTKVEIK
B4: EBOV62 (antibody, V domains shown)
VH: EVQLVESGGGLVQPGGSLRLSCAASGFTFSSYWMSWVRQAPGKGLEWVANIKQDGSAKYYVDSVKGRFTISRDNAKNSLYLQMNSLRAEDTAVYYCARDGLLGISDLLYPIYYFDYWGQGTLVTVSS
VL: DIVMTQSPSSLSASVGDRVTITCRASQNIGSYLNWYQQKPGKAPNLLMYAASSLQSGVPSRFSGSGSGTDFTLTITSLQPEDFATYYCQQSYSIPRTFGQGTQLEIK
B5: EBOV63 (antibody, V domains shown)
VH: EVQLVESGGGLVKPGGSLRLSCAASGFTLNFYNMNWVRQAPGKGLEWVSSISSSSNYIYYADSVKGRFTISRDNARKSLYLQMNSLRAEDTAVYYCARDFVQLLIPQRDEWQGVHDYYGMDVWGQGTLVTVSS
VL: EIVLTQSPGTLSLSPGGRATLSCRASQSVSNSYLAWYQQKPGQAPRLLIYGASSRATGIPDRFSGSGSGTDFILTISRLEPEDFAVYYCQHYGSSQLTFGGGTKVEIK
B6: EBOV87 (antibody, V domains shown)
VH: QVQLVQSGAEVKRPGASVKVSCKASGYTFTSYAISWVRQAPGQGLEWMGWISGNNGNTNYAQKLQGRLTMTTDTSTSTAYMELRSLRSDDTAVYYCARDADIVVVVGATGTYYYGMDVWGQGTLVTVSS
VL: DIVMTQSPSTLSASVGDRVTITCRASQSISSWLAWYQQKPGKAPKLLIYDASSLESGVPSRFSGSGSGTEFTLTISSLQPDDFATYYCQQYKSSLRTFGQGTQLEIK

target: EBOV GP on virus (Ebola Zaire strain Mayinga) (Ebola Zaire strain Mayinga (EBOV), UniProt Q05320 33-676); assay: cell-based or functional assay

Row | Binder | IC50, neutralization of EBOV [µg/mL]
1 | B1 | 6.5
2 | B2 | 29.9
3 | B3 | 4
4 | B4 | 8.5
5 | B5 | 6.4
6 | B6 | 3.3
